This passage reports HC50 results from ChEMBL document CHEMBL4402583, “Rational Substitution of ε-Lysine for α-Lysine Enhances the Cell and Membrane Selectivity of Pore-Forming Melittin” (J Med Chem, 2020).

A short description of the data set: Hemolytic activity against human erythrocytes assessed as hemoglobin release incubated for 1 hr. It counts as ADME, cell-based, Erythrocyte. Particulars: read-out: HD50.

SMILES strings stand for the structures.

For `CC[C@H](C)[C@H](NC(=O)CN)C(=O)NCC(=O)N[C@@H](C)C(=O)N[C@H](C(=O)N[C@@H](CC(C)C)C(=O)N[C@@H](CCCCN)C(=O)N[C@H](C(=O)N[C@@H](CC(C)C)C(=O)N[C@H](C(=O)N[C@H](C(=O)NCC(=O)N[C@@H](CC(C)C)C(=O)N1CCC[C@H]1C(=O)N[C@@H](C)C(=O)N[C@@H](CC(C)C)C(=O)N[C@H](C(=O)N[C@@H](CO)C(=O)N[C@@H](Cc1c[nH]c2ccccc12)C(=O)N[C@H](C(=O)N[C@@H](CCCCN)C(=O)N[C@@H](CCCNC(=N)N)C(=O)N[C@@H](CCCCN)C(=O)N[C@@H](CCCNC(=N)N)C(=O)N[C@@H](CCC(N)=O)C(=O)N[C@@H](CCC(N)=O)C(N)=O)[C@@H](C)CC)[C@@H](C)CC)[C@@H](C)O)[C@@H](C)O)C(C)C)C(C)C` [MELITTIN], the HC50 at 1 h is 1.95 µg/mL.
